Data taken from PubChem BioAssay AID2606 (The Scripps Research Institute Molecular Screening Center, 2010).
The list shows a part of the results, in another mix than the full data. Some structures show a salt or complex split into parts, the way the source records it. Calls of active or inactive are those of the source. Rule as the data show it: active = inhibition above about 38%; inactive = the rest.

By UniProt entry, the sequences of proteins in these tests, tags left out.
UniProt P9WHR9, whole entry: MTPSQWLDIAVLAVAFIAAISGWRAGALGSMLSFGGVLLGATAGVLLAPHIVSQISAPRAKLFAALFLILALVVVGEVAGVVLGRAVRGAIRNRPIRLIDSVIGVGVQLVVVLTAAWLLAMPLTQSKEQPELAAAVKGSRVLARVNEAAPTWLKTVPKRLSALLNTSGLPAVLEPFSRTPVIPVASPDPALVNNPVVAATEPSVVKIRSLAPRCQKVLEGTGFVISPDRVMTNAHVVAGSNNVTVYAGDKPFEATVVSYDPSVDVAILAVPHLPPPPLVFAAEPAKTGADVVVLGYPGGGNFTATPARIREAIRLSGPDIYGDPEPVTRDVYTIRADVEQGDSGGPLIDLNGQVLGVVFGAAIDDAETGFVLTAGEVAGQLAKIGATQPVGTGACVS

The molecules below were run against Serine protease Rv3671c (Mycobacterium tuberculosis (strain ATCC 25618 / H37Rv)) (UniProt P9WHR9) (assay: Rv3671c serine protease inhibitors, primary screen, biochemical, fluorescence polarization, M. tuberculosis H37Rv (AID 2606;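 also: extracellular domain of Rv3671c used as enzyme; 0% = enzyme with DMSO and 100% = no enzyme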)). Settings: at 5.96 µM; hits give high values.

SMILES | inhibition
CP(=O)(OCCOc1ccccc1)OCCOc1ccccc1 | inactive: 5.75%
CP(=O)(Nc1ccc(Cl)cc1Cl)Oc1ccccc1 (configuration not stated) | inactive: 3.55%
Cc1cc(C)cc(OP(C)(=O)Nc2cccc(C(F)(F)F)c2)c1 (configuration not stated) | inactive: -11.8%
COc1ccc(OP(C)(=O)Nc2ccccc2Br)cc1 (configuration not stated) | inactive: -3.02%
COc1ccccc1OP(C)(=O)Nc1ccc(C)c(C)c1 (configuration not stated) | inactive: 4.45%
O=[N+]([O-])c1cc([N+](=O)[O-])c(Nc2ccccn2)c([N+](=O)[O-])c1 | inactive: -36.5%
Cc1c(NP(C)(=O)Oc2ccc(C(C)C)cc2)c(=O)n(-c2ccccc2)n1C (configuration not stated) | inactive: -2%
CCc1ccc(OP(C)(=O)O)cc1 | inactive: 6.65%
CP(=O)(Nc1ccccn1)Oc1ccccc1 (configuration not stated) | inactive: 0.33%
COc1ccccc1OP(C)(=O)Nc1ccc(C)cc1C (configuration not stated) | inactive: -2.91%
COc1ccccc1OP(C)(=O)Nc1ccc(Br)cc1 (configuration not stated) | inactive: 2.28%
CN(C)CCOC(=O)C(O)(c1ccccc1)C1CCCC1 (configuration not stated) | inactive: 3.2%
COc1ccc(OP(C)(=O)Nc2ccccn2)cc1 (configuration not stated) | inactive: -7.2%
O=C(OCCN1CCN(CCOCc2ccccc2)CC1)C(O)(c1ccccc1)c1ccccc1 | inactive: -6.73%
O=C(OC1CN2CCC1CC2)c1ccc([N+](=O)[O-])cc1 (configuration not stated) | inactive: 1.32%
COc1ccc2c(c1O)-c1c(O)c(OC)cc3c1[C@H](C2)[N+](C)(C)CC3.O=[N+]([O-])c1cc([N+](=O)[O-])c([O-])c([N+](=O)[O-])c1[O-] | inactive: -3.49%

SMILES | inhibition
CC(C)c1ccc(OP(C)(=O)Nc2ccc(SC(F)(F)F)cc2)cc1 (configuration not stated) | inactive: 0.4%
CP(=O)(Nc1ccccc1F)Oc1ccccc1 (configuration not stated) | inactive: 1.02%
CCN(CC)CCCOC(=O)C(O)(c1ccccc1)C1CCCCC1 (configuration not stated) | inactive: 4.12%
O=[N+]([O-])c1cc([N+](=O)[O-])c(OC2CCCCC2O)c([N+](=O)[O-])c1 (configuration not stated) | inactive: 2.28%
CCCCCOc1ccc(NP(C)(=O)Oc2ccc(Cl)cc2Cl)cc1 (configuration not stated) | inactive: 2.08%
CP(=O)(Nc1ccccc1)Oc1ccc(F)cc1 (configuration not stated) | inactive: 1.67%
COc1ccc(OP(C)(=O)Nc2ccc(SC(F)(F)F)cc2)cc1 (configuration not stated) | inactive: -5.29%
CCOC(=O)c1ccc(NP(C)(=O)Oc2ccc(F)cc2)cc1 (configuration not stated) | inactive: -7.88%
O=[N+]([O-])c1cc([N+](=O)[O-])c(NCC2CCS(=O)(=O)C2)c([N+](=O)[O-])c1 (configuration not stated) | inactive: -5.28%
COc1ccc(OP(C)(=O)Nc2cccc(Br)c2)cc1 (configuration not stated) | inactive: -13.9%
COc1ccc(NP(C)(=O)Oc2ccccc2OC)cc1 (configuration not stated) | inactive: -4.04%
CN(C)CCOC(=O)C(O)(c1ccccc1)C1CCCCC1 (configuration not stated) | inactive: -0.3%
CP(=O)(Nc1ccc2c(c1)OCCO2)Oc1ccccc1 (configuration not stated) | inactive: -5.65%
Cc1ccccc1NP(C)(=O)Nc1ccccc1C | inactive: 0.73%
CP(=O)(Nc1ccc(SC(F)(F)F)cc1)Oc1ccc(F)cc1 (configuration not stated) | inactive: -3%
CCOP(C)(=S)SCC(=O)NC(C)(CC)C(=O)O (configuration not stated) | inactive: -9.64%
